Anti-infective test results gathered from many reports (values: NIAID ChemDB through PubChem).

Shared fields: whole-cell or culture tests; agent: Poliovirus

ECn is the concentration giving n% inhibition of infection, replication or growth.

CSc1nsc(-c2cccc(Cl)c2)c1C#N ; strain or isolate: Type 1/Brunhilde ; cell line: HEP-2 ; measure: EC50 ; value: 0.2 µM
CCC(=O)C(CCCCCCOc1ccc(OC)cc1Cl)C(=O)CC ; strain or isolate: MEF (TYPE 2) ; dose: 0.54 µM ; cell line: HeLa ; measure: inhibition ; value: 98%
CCC(O)c1ccc2c(c1)Sc1ccccc1O2 ; strain or isolate: TYPE 3 ; dose: 2 µg/mL ; cell line: BSC-1 ; measure: inhibition ; value: 31%
CC(C)CCC[C@@H](COS(=O)(=O)O)[C@H]1CC[C@H]2[C@@H]3CC[C@@H]4[C@H](O)[C@H](OS(=O)(=O)O)CC[C@]4(C)[C@H]3[C@@H](O)C[C@]12C ; strain or isolate: SABIN (TYPE 3) ; dose: 40 µg/mL ; cell line: VERO ; measure: inhibition ; value: 33%
CC(O)c1ccc2c(c1)Cc1ccccc1O2 ; strain or isolate: TYPE 3 ; dose: 0.4 µg/mL ; cell line: BSC-1 ; measure: inhibition ; value: 22%
Cc1ccc(C(=O)CCCCCCOc2ccc(C3=NC(C)CO3)cc2)s1 ; strain or isolate: TYPE 1 ; cell line: VERO ; measure: EC50 ; value: >25.97 µM
Nc1ncnc2c1ncn2[C@@H]1C=C[C@@H](O)[C@H]1O ; strain or isolate: TYPE 1 ; measure: MIC ; value: >400 µg/mL
Clc1ccc(C2=Cc3ccccc3OC2)cc1 ; strain or isolate: IB (TYPE 2) ; dose: 10 µM ; cell line: HEP-2 ; measure: inhibition ; value: 15%
Nc1ncnc2c1ncn2[C@@H]1CC[C@@H](O)[C@H]1O ; strain or isolate: TYPE 1 ; measure: MIC ; value: >200 µg/mL
CSc1nsc(-c2ccccc2Cl)c1C#N ; strain or isolate: Type 1/Brunhilde ; cell line: HEP-2 ; measure: EC50 ; value: >5 µM
Cc1ccc(C(=O)CCCCOc2ccc(C3=N[C@@H](C)CO3)cc2)s1 ; strain or isolate: TYPE 3 ; cell line: VERO ; measure: EC50 ; value: 0.56 µM
Clc1ccc2c(c1)C=C(c1ccccc1)CO2 ; strain or isolate: SABIN (TYPE 2) ; cell line: HEP-2 ; measure: EC50 ; value: <10 µM
Nc1nccc2c1ncn2[C@@H]1CC[C@@H](O)[C@H]1O ; strain or isolate: TYPE 1 ; measure: MIC ; value: >200 µg/mL
CC(N)c1ccc2c(c1)Sc1ccccc1O2 ; strain or isolate: TYPE 3 ; dose: 0.4 µg/mL ; cell line: BSC-1 ; measure: inhibition ; value: 13%
CSc1nsc(-c2cccs2)c1C#N ; strain or isolate: Type 1/Brunhilde ; cell line: HEP-2 ; measure: EC50 ; value: 0.1 µM
C=C(CC[C@@H](COS(=O)(=O)O)[C@H]1CC[C@H]2[C@@H]3CC[C@@H]4[C@H](O)[C@H](OS(=O)(=O)O)CC[C@]4(C)[C@H]3[C@@H](O)C[C@]12C)C(C)C ; strain or isolate: SABIN (TYPE 3) ; dose: 20 µg/mL ; cell line: VERO ; measure: inhibition ; value: 38%
COc1nsc(-c2ccccc2)c1C#N ; strain or isolate: Type 1/Brunhilde ; cell line: HEP-2 ; measure: EC50 ; value: 0.5 µM
Cc1ccnc(SCc2cccc(CSc3nc4ccccc4s3)n2)n1 ; measure: MIC ; value: 11 µM
CC(=O)c1ccc2c(c1)[S@@](=O)c1ccccc1O2 ; strain or isolate: TYPE 3 ; dose: 0.4 µg/mL ; cell line: BSC-1 ; measure: inhibition ; value: 20%
Cc1ccc(C(=O)CCCCCCOc2ccc(C3=N[C@H](C)CO3)cc2)s1 ; strain or isolate: TYPE 1 ; cell line: VERO ; measure: EC50 ; value: >25.97 µM
CSc1nsc(-c2ccccc2)c1C#N ; strain or isolate: Type 1/Brunhilde ; cell line: HEP-2 ; measure: EC50 ; value: 0.045 µM
CC(=O)c1ccc2c(c1)Sc1cc(C(C)=O)ccc1O2 ; strain or isolate: TYPE 3 ; dose: 10 µg/mL ; cell line: BSC-1 ; measure: inhibition ; value: 5%
Cc1cc(CCCCCOc2cc(Cl)c(-c3nnco3)c(Cl)c2)on1 ; strain or isolate: TYPE 2 ; measure: MIC ; value: 2.24 µg/mL

The last 2 rows once more:

smiles,strain or isolate,dose,cell line,measure,value
CC(=O)c1ccc2c(c1)Sc1cc(C(C)=O)ccc1O2,TYPE 3,10 µg/mL,BSC-1,inhibition,5%
Cc1cc(CCCCCOc2cc(Cl)c(-c3nnco3)c(Cl)c2)on1,TYPE 2,-,-,MIC,2.24 µg/mL

Rows are shuffled and stem from different studies. An empty or dashed field is not shown. Inhibition is in % at the dose shown (toxicity tests: loss of growth or viability).